Results of unrelated studies side by side (data: NIAID ChemDB).

All rows: whole-cell or culture tests; species: Mycobacterium kansasii; measure: MIC

An empty or dashed field is not shown. Lines come from different laboratories, so protocols vary.

structure,strain,read by,setting,value
O=C(N[C@H]([C@@H](O)CNCc1cccc(I)c1)C(F)(F)c1ccccc1)OCc1ccccc1,ATCC 35775,broth dilution,-,32 µg/mL
O=C(Nc1ccc(C(F)(F)F)cc1)c1cc(Cl)ccc1OP(=O)(OCc1ccccc1)OCc1ccccc1,My 235/80,-,14 d,32 µM
CC(C)Cc1cnc(C(=O)/C=C/c2ccccc2Br)cn1,Hauduroy,absorbance,-,100 µg/mL
O=C(N[C@H]([C@H](O)CNCc1cccc(I)c1)C(F)(F)c1ccccc1)OCc1ccccc1,P,broth dilution,-,16 µg/mL
O=C(Nc1ccc(Cl)cc1)c1cc(Cl)ccc1OP(=O)(c1ccccc1)c1ccccc1,My 6509/96,-,7 d,8 µM
CC(C)c1cnc(C(=O)/C=C/c2ccccc2Br)cn1,Hauduroy,absorbance,-,12.5 µg/mL
C=C1C(=O)N[C@@H](C)C(=O)N[C@H](CC(C)C)C(=O)N[C@H](C(=O)O)[C@H](C)C(=O)N[C@H](CCCN=C(N)N)C(=O)N[C@@H](/C=C/C(C)=C/[C@H](C)[C@H](Cc2ccccc2)OC)[C@@H](C)C(=O)N[C@@H](C(=O)O)CCC(=O)N1C,-,resazurin,-,2.15 µM
CCCc1cnc(C(=O)/C=C/c2ccccc2F)cn1,Hauduroy,absorbance,-,12.5 µg/mL
O=C(N[C@@H]([C@H](O)CNCc1cccc(I)c1)C(F)(F)c1ccccc1)OCc1ccccc1,T,broth dilution,-,>256 µg/mL
CC(C)Cc1cnc(C(=O)/C=C/c2ccc(Cl)cc2)cn1,Hauduroy,absorbance,-,12.5 µg/mL
O=C(N/N=C/N1CCN(c2cc3c(cc2F)c(=O)c(C(=O)O)cn3C2CC2)CC1)c1ccc(C(F)(F)F)cc1,6509/96,-,7 d,1 µM
O=C(Nc1ccc(Cl)c(Cl)c1)c1cc(Cl)ccc1OP(=O)(c1ccccc1)c1ccccc1,My 235/80,-,7 d,4 µM
O=C(N[C@@H]([C@@H](O)CNCc1cccc(I)c1)C(F)(F)c1ccccc1)OCc1ccccc1,ATCC 35775,broth dilution,-,32 µg/mL
O=C(Nc1ccc(Br)cc1)c1cc(Cl)ccc1OP(=O)(OCc1ccccc1)OCc1ccccc1,My 6509/96,-,14 d,32 µM
O=C(/C=C/c1ccc(Cl)cc1)c1cnccn1,Hauduroy,absorbance,-,6.25 µg/mL

2 of the rows above, restated:

structure,strain,read by,setting,value
O=C(N[C@@H]([C@@H](O)CNCc1cccc(I)c1)C(F)(F)c1ccccc1)OCc1ccccc1,ATCC 35775,broth dilution,-,32 µg/mL
O=C(Nc1ccc(Cl)cc1)c1cc(Cl)ccc1OP(=O)(c1ccccc1)c1ccccc1,My 6509/96,-,7 d,8 µM